Tested on: COVID-19
Type: in vivo, human
Settings: individual patients, PLD 1.5 mg×3
Protocol: All patients received the following prophylactic medications 20-30 minutes before the infusion of plitidepsin: • Diphenhydramine hydrochloride 25 mg iv or equivalent. • Ranitidine 50 mg iv or equivalent. • Dexamethasone 6.6 mg intravenous. • Ondansetron 8 mg i.v. in slow infusion of 15 minutes or equivalent.
Patients included in the study will receive treatment for 3 days.

With “(−)-(3S,6R,7S,10R,11S,15S,17S,20S,25aS)-11-hydroxy-3-(4-methoxybenzyl)-2,6,17-trimethyl-15-(1-methylethyl)-7-[[(2R)-4-methyl-2-[methyl[[(2S)-1-(2-oxopropanoyl)pyrrolidin-2-yl]carbonyl]amino]pentanoyl]amino]-10-[(1S)-1-methylpropyl]-20-(2-methylpropyl)tetradecahydro-15H-pyrrolo[2,1-f]-[1,15,4,7,10,20]dioxatetrazacyclotricosine-1,4,8,13,16,18,21(17H)-heptone [PLD]” the “Hospital discharge by day” value was ≤ 7 days and the clinical outcome was “Acute clinical improvement”.
